A mixed list of measured activities; the numbers were collected in NIAID ChemDB.

Shared fields: whole-cell or culture tests; species: Herpes simplex virus 1

Rows are shuffled and stem from different studies. ECn is the concentration giving n% inhibition of infection, replication or growth. An empty or dashed field is not shown. a–b is a range or a potency band.

SMILES	endpoint	strain	method	cell line	result
OC[C@H]1C[C@@H](n2cnc3c(Cl)ncnc32)[C@H](O)[C@@H]1O	EC50	HF	cytopathic effect	VERO	13.8 µg/mL
O=[N+]([O-])c1ccccc1S(=O)(=O)n1c(CCc2ccccn2)nc2cc(Cl)c(Cl)cc21	EC50	-	plaque count	-	>2 µg/mL
O=Cc1cn([C@@H]2O[C@H](CO)[C@@H](O)[C@@H]2O)c(=O)[nH]c1=O	EC50	77	plaque count	VERO	460 µM
CCc1cn([C@H]2C[C@H](O)[C@@H](CO)O2)c(=O)[nH]c1=O	EC50	KOS	cytopathic effect	HEP-2	0.8 µg/mL
CC1=C[C@H](n2cnc3c(N)ncnc32)CC1(CO)CO	EC50	-	-	-	>100 µg/mL
O=c1[nH]c(=O)n([C@H]2C[C@H](O)[C@@H](CO)O2)cc1F	EC50	-	cytopathic effect	Human skin fibroblasts	0.4 µM
CSc1ncnc2c1ncn2[C@@H]1C[C@H](CO)[C@@H](O)[C@H]1O	EC50	HF	cytopathic effect	VERO	59 µg/mL
Nc1nc2c(ncn2CSC(CO)CO)c(=O)[nH]1	EC50	ICI	plaque count	VERO	6.9 µM
O=c1[nH]c(=O)n([C@@H]2O[C@H](CO)[C@@H](O)[C@@H]2O)cc1/C=C/Cl	EC50	VR-3	plaque count	HELF	0.018 µg/mL
Cc1cn([C@@H]2O[C@H](CO)[C@@H](O)[C@@H]2F)c(=O)[nH]c1=O	EC50	V3	plaque count	HELF	0.09 µM
Nc1nc2c(ncn2COC(CO)COP(=O)(O)OP(=O)(O)O)c(=O)[nH]1	EC50	-	cytopathic effect	VERO	0.08 µg/mL
[N-]=[N+]=NC[C@H]1O[C@@H](n2cc(Cl)c(=O)[nH]c2=O)C[C@@H]1O	EC50	-	plaque count	VERO	>100 µM
O=c1[nH]c(=O)n([C@H]2C[C@H](O)[C@@H](CO)O2)cc1/C=C/Br	EC50	F-FIAC-C3	plaque count	VERO	210 µM
O=c1[nH]c(=O)n([C@H]2O[C@@H](CO)[C@@H](O)[C@@H]2O)cc1C(F)(F)F	EC50	77	plaque count	HELF	85 µM
Nc1ncc2c(ncn2COC(CO)CO)n1	EC50	-	-	-	0.1–1 µM
CC1(CO)CCC(Cn2nnc3c(Cl)nc(N)nc32)C1(C)C	EC50	KOS	cytopathic effect	E6SM	>100 µg/mL
NC[C@H]1O[C@@H](n2cc(Cl)c(=O)[nH]c2=O)C[C@@H]1O	EC50	-	plaque count	VERO	<100 µM
Nc1nc(N)c2c(ncn2[C@@H]2O[C@H](CO)[C@@H](O)[C@H]2O)n1	EC50	HF	cytopathic effect	VERO	0.3 µg/mL
O=c1[nH]c(=O)n([C@H]2C[C@H](O)[C@@H](CO)O2)cc1I	EC50	42-78	plaque count	HELF	100 µM
CC1=C[C@H](n2cnc3c(N)ncnc32)C[C@]1(C)CO	EC50	-	-	-	>100 µg/mL
CC1=CC(CO)(CO)C[C@H]1n1cnc2c(N)ncnc21	EC50	-	cytopathic effect	CCL-81	>100 µg/mL
O=C(NCc1ccc(Cl)cc1)c1cn(N2CCOCC2)c2ccc(CN3CCOCC3)cc2c1=O	EC50	KOS	plaque count	HFF	3.3 µM
O=c1[nH]c(=O)n([C@@H]2O[C@H](COP(=O)(O)O)[C@@H](O)[C@@H]2O)cc1/C=C/Br	EC50	MP	plaque count	HELF	0.005 µg/mL
O=c1[nH]c(=O)n([C@H]2CC[C@@H](CO)O2)cc1/C=C/Br	EC50	B2006 (TK-)	cytopathic effect	PRK	100 µg/mL
Cc1cn([C@@H]2O[C@H](CO)[C@@H](O)[C@@H]2F)c(=O)[nH]c1=O	EC50	F-FIAC-C3	plaque count	VERO	10 µM
CC1=C[C@H](n2cnc3c(N)ncnc32)C[C@@]1(CO)c1ccccc1	EC50	-	cytopathic effect	CCL-81	>56.2 µg/mL
Nc1nc2c(ncn2COCCOP(=O)(O)OP(=O)(O)OP(=O)(O)O)c(=O)[nH]1	EC50	-	cytopathic effect	VERO	1.09 µg/mL
C[C@@]1(O)[C@H](O)[C@@H](COP(=O)(O)OP(=O)(O)OP(=O)(O)O)O[C@H]1n1ccc2c(N)ncnc21	EC50	-	cytopathic effect	VERO	>320 µM
Nc1nccc2c1ncn2[C@@H]1C[C@H](CO)[C@@H](O)[C@H]1O	EC50	HF	cytopathic effect	VERO	238 µg/mL
O=c1[nH]c(=O)n([C@H]2C[C@H](O)[C@@H](CO)O2)cc1/C=C/Br	EC50	KOS-M1	plaque count	VERO	0.1 µM
Nc1nc(=O)c(/C=C/Br)cn1[C@H]1C[C@H](O)[C@@H](CO)O1	EC50	KOS	cytopathic effect	PRK	20 µg/mL
NC1=NC2C(C=CN2CC(CO)CCO)C(=O)N1	EC50	B2006 (TK-)	cytopathic effect	VERO	>100 µg/mL
Nc1nc2c(ncn2COCCO)c(=O)[nH]1	EC50	MP	plaque count	HELF	0.02 µg/mL
Nc1ccn([C@@H]2C[C@H](CO)[C@@H](O)[C@H]2O)c(=O)n1	EC50	HF	cytopathic effect	VERO	68 µg/mL
Nc1nc2c(ncn2COC(CO)COP(=O)(O)O)c(=O)[nH]1	EC50	-	cytopathic effect	VERO	0.08 µg/mL
Cn1cc(C(=O)NCc2ccc(Cl)cc2)c(=O)c2cc(CN3CCOCC3)ccc21	EC50	KOS-M1	plaque count	VERO	>50 µM
CCCc1cn([C@H]2C[C@H](O)[C@@H](COP(=O)(O)O)O2)c(=O)[nH]c1=O	EC50	B2006 (TK-)	cytopathic effect	BSC-1	>797 µg/mL
O=c1[nH]c(=O)n([C@@H]2O[C@H](CO)[C@@H](O)[C@@H]2F)cc1I	EC50	F-FIAU-C1	plaque count	VERO	8.5 µM
Nc1ccn([C@@H]2C[C@H](CO)[C@@H](O)[C@@H]2O)c(=O)n1	EC50	377	cytopathic effect	VERO	<32 µg/mL
O=C(NCc1ccc(Cl)cc1)c1cn2c3c(cc(CN4CCOCC4)cc3c1=O)OC(c1cccnc1)C2	EC50	L6191321 ACV resistant	plaque count	HFF	7.1 µM
C=Cc1cn([C@@H]2O[C@H](CO)[C@@H](O)[C@@H]2O)c(=O)[nH]c1=O	EC50	77	plaque count	HELF	0.08 µM
Nc1nc(=O)n([C@@H]2O[C@H](CO)[C@@H](O)[C@@H]2F)cc1I	EC50	F-AMAU-C2	plaque count	VERO	8 µM
Nc1nc(=O)n([C@@H]2O[C@H](CO)[C@@H](O)[C@@H]2F)cc1I	EC50	V3	plaque count	HELF	0.12 µM
Cn1cc(C(=O)NCc2ccc(Cl)cc2)c(=O)c2cc(CN3CCOCC3)ccc21	EC50	E-115	plaque count	HFF	7.7 µM
NC1=NC2C(C=CN2CC(CO)CCO)C(=O)N1	EC50	-	-	-	0.01–0.1 µM
O=c1[nH]c(=O)n([C@H]2C[C@H](O)[C@@H](CO)O2)cc1C(F)(F)F	EC50	-	cytopathic effect	Human skin fibroblasts	1.3 µM
Cc1cn([C@@H]2O[C@H](CO)[C@@H](O)[C@@H]2O)c(=O)[nH]c1=O	EC50	V3	plaque count	VERO	57 µM
O=C(N/C(C(=O)N1CCCCC1)=C(/Cl)c1ccccc1)c1ccccc1	EC90	-	-	VERO	>81 µM
[N-]=[N+]=NC[C@H]1O[C@@H](n2cc(I)c(=O)[nH]c2=O)C[C@@H]1O	EC50	-	plaque count	VERO	>100 µM
CC1=C[C@H](n2ccc(=O)[nH]c2=O)CC1(CO)CO	EC50	-	-	-	>100 µg/mL